# Screening data, single-dose tests

Mtb glucose medium: 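Phenotypic screen: M. tuberculosis growth, glucose 7H9 medium, 3 days; the read-out is not stated. Concentration: 50 µM. The record gives no direction; compounds that gave an IC50 in retests scored well above the rest, so higher reads as more growth inhibition. About 69,000 compounds were tested under these conditions; 1.1% (about 760) showed 50% or more at least once.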
Mtb cholesterol medium: 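Whole-cell growth test on Mycobacterium tuberculosis, read after 4 days in a medium based on cholesterol and the lipid DPPC; the read-out is not stated. Concentration: 50 µM. Direction is inferred from retests: higher values go with more growth inhibition. About 69,000 compounds were tested under these conditions; 0.54% (about 370) showed 50% or more at least once.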

The filed quantity is “Percent Effect” (%). The controls that fix the scale are not given in the record; negative values are as filed. Many other results are left out here, so strong results are more common than in the screen. Two or more numbers in one place are separate tests of the same structure; such repeats can differ widely.

For CCSc1ncc(CN2CCN(c3nc(C)ncc3C)CC2)cn1 the result was Mtb glucose medium: 19.37%; Mtb cholesterol medium: 33.93%.
For O=C(c1cc(C2CC2)[nH]n1)N1CCN(Cc2ccc(Cl)cc2)CC1 the result was Mtb glucose medium: -0.5851% & 3.492%; Mtb cholesterol medium: -17.09%.
For CC1CCCCN1C(=O)c1ccc2c(c1)OCCCO2 (stereo not shown) the result was Mtb cholesterol medium: -45.21%.
For O=C1N(Cc2ccccc2F)CCCC12CCN(C1CCSCC1)C2 (stereo not shown) the result was Mtb glucose medium: 36.37%.
For Cc1cc(Br)oc1C(=O)N1CCCN(CC(N)=O)CC1 the result was Mtb glucose medium: -36.48%.
For Oc1nc(N2CCOCC2)nc2c1CCN(Cc1cccc(F)c1)CC2 the result was Mtb glucose medium: -11.45%.
For COc1cc2cc(C)c(SCCN3CCCC3)nc2cc1OC.Cl the result was Mtb glucose medium: 51.88%.
For Cc1cc(NCCNc2cccnc2)nc(N)n1 the result was Mtb glucose medium: -22.85%.
For CCn1nc(C)c2nc(C(C)C)nc(N(C)Cc3ccco3)c21 the result was Mtb glucose medium: 34.95%; Mtb cholesterol medium: 23.33%.
For Cc1nc(NC2CCCC2)cc(C2CCN2c2ncccn2)n1 (stereo not shown) the result was Mtb glucose medium: 7.248%.
For Cc1nsc(C(=O)NCCc2ccc(F)cc2)n1 the result was Mtb glucose medium: 57.66%; Mtb cholesterol medium: 53.63%.
For CN1CCCN(C(=O)c2cnsn2)c2cc(Cl)ccc21 the result was Mtb glucose medium: 12.14%.
For [H][C@@]12CCC(=O)N(CCc3ccccc3)[C@]1([H])CCN(Cc1cnn(C)c1)C2 the result was Mtb glucose medium: -8.181%.
For CC1(C)CCC(CC(=O)O)c2ccccc21 (stereo not shown) the result was Mtb cholesterol medium: -1.827%.
For Cc1cccc(CNC(=O)Nc2ccc3c(c2)CCCC(=O)N3)c1 the result was Mtb cholesterol medium: -5.785%.
For O=C(NC1CC1)c1ccnc(N2CCOC(c3ccc(Cl)cc3)C2)c1 (stereo not shown) the result was Mtb glucose medium: 20.19%.
For COC(C)c1cccc(NCc2cccc(O)c2)c1 (stereo not shown) the result was Mtb glucose medium: -12.51%; Mtb cholesterol medium: 9.74%.
For Cc1noc(CNC(=O)NCCc2ccc(Cl)cc2)n1 the result was Mtb cholesterol medium: -8.119%.
For CO[C@H]1CCN(C2CCOCC2)C[C@@H]1Cc1ccccc1.O=C(O)C(F)(F)F the result was Mtb glucose medium: 4.727%.
For COC(=O)C1CCN(C(=O)c2nnc3ccc(Cl)cc3n2)CC1 the result was Mtb glucose medium: 39.38%; Mtb cholesterol medium: 19.2%.
For CC(=O)N1CCC(CSCc2ccco2)CC1 the result was Mtb glucose medium: 1.972%.
For O=C(O)C(=O)O.c1cncc(-c2noc(C3CN(Cc4cccs4)C3)n2)c1 the result was Mtb glucose medium: 19.42% & 20.97%.
For Cc1cc(CN(C)C2CCCN(Cc3noc(C)n3)C2)no1 (stereo not shown) the result was Mtb glucose medium: -36.48%.
For COc1c(C)cnc(CSc2nnc(C)s2)c1C the result was Mtb cholesterol medium: 24.89%.
For CC(C(=O)Nc1ccccn1)n1ccc(C(F)(F)F)n1 (stereo not shown) the result was Mtb glucose medium: -1.407%.
For NS(=O)(=O)c1cccnc1Nc1cccc(Cl)c1Cl the result was Mtb cholesterol medium: 12.32%.
For c1ccc2sc(N3CCOC(Cn4cccn4)C3)nc2c1 (stereo not shown) the result was Mtb glucose medium: 51.48%.
For OCc1ccc(CN(CCCn2ccnc2)Cc2cccnc2)o1 the result was Mtb glucose medium: 20.79%.
For CSc1ccc(C(CNC(C)=O)N2CCc3sccc3C2)cc1 (stereo not shown) the result was Mtb glucose medium: 26.47%.
For O=C(NCCCNc1ccc(C(F)(F)F)cn1)c1ccccc1 the result was Mtb glucose medium: 43.59%; Mtb cholesterol medium: 26.12%.
For COCCN(c1ccncc1)S(=O)(=O)c1cc(C)c(F)cc1F the result was Mtb glucose medium: -3.79% & -19.09%.
For COc1cccc(OC)c1-c1ccnc2cc(CC(=O)NC3CC3)nn12 the result was Mtb glucose medium: 33.22%.
For OCC(O)CSCc1ccc(Cl)cc1Cl (stereo not shown) the result was Mtb glucose medium: 6.197%; Mtb cholesterol medium: 12.05%.
For COc1ccc2nnc(C(=O)NC3CCCC3)nc2c1 the result was Mtb glucose medium: 9.297% & 22.12%.
For O=C(O)CC(O)(CC(=O)O)C(=O)O.[H][C@@]12CC[C@@](O)(c3ccc(C)cn3)[C@]1([H])CN(Cc1cccc(F)c1F)C2 the result was Mtb glucose medium: 24.58%.
For [H][C@]12OCCN(C(=O)COc3ccccc3)[C@@]1([H])CC[C@@H]2OCC the result was Mtb glucose medium: 73.2%.
For c1ccc(-c2nc(CCNCc3ccncc3)co2)cc1 the result was Mtb cholesterol medium: -10.82% & 60.27%.

Data taken from ChEMBL document CHEMBL3988442, “University of Dundee, Small-Polar-MMV Screening Library” (2021).